Experimental data taken from the supplement of paper PMC9931576.
Human monoclonal antibodies against the spike receptor-binding domain (heavy:light variable regions). IC50 against pseudoviruses bearing the spike of naturally observed variants; lower = stronger; >10 µg/ml means not reached at the top dose. No active / inactive call. The stated detection limit is 0.0005 µg/ml; values near or below 0.001 µg/ml lie at the floor of the assay.

B1: BD56-519 (protein)
chain 1: QKHLVQSGPEVKKPGTSVKVSCKASGFTFSSSAVQWVRQARGQRLEWIGWIVVGSGQTEFVQKFQERATMTRDMSTSTVYMELSRLRSEDTAVYYCAAPYCGPTNCHDGFDIWGQGTMVTVSS
chain 2: EIVLTQSPGTLSLSPGERATLFCRASQSIRSNYFAWYQQKPGQAPTLLIYGPSSRATGIPDRFSGSGSGTDFSLTIRRLEPEDFAVYYCQQYGNSPWTFGQGTKVEIK
B2: BD56-523 (protein)
chain 1: EVQLVESGGGLVQPGGSLRLSCVASGFTFSSSDMHWVRQVTGKGLEWVSAIGTGGDTYYPDSVKGRFTISRENAKNSLYLQMNSLRAGDTAVYYCARVKCGAESGYEPCWYFDLWGRGTLVTVSS
chain 2: EIVMTQSPATLSVSPGERAALSCRASQSVSNNLAWYQQRPGQAPRLLIYGASTRATGIPARFSGSGSGTEFTLTISSLQSEDFAIYYCQQYYSWPPETFGPGTTVEIK
B3: BD56-525 (protein)
chain 1: QITLKESGPTLVKPTQTLTLTCTFSGFALSTSGVAVAWIRQPPGKALEWLALIYWNDDKHYSPSLKRRLTITKDTSKKQVVLTMTDMDPVDTATYYCAHNVQLWLTAFEYWGQGTMVTVSS
chain 2: DIQMTQSPSSLSASVGDSVTITCQASQDISNYLNWYQQKPGRAPKLLIFDASNLETGVPSRFSGSGSGTHFSFTISSLQPEDIATYYCQQYDNLPSITFGQGTRLEIK
B4: BD56-526 (protein)
chain 1: QVHLVQSGAEVKRPGASVKVSCKASGYTFTSYGISWVRQAPGQGLEWMGWISTDNGNTVYTHKLRGRVTMTTDRSTSTAFMELRTLTSDDTAVYYCAREGGVTVAYFDYWGQGTLVTVSS
chain 2: EIVLTQSPDFQSVTPKEKVTITCRASESIGTSLHWYQQKPDQSPKVLIKDASQSFSGVPSRFSGSGSGTDFTLTINSLEAEDAATYYCHQSSSLPYTFGQGTKLEIK
B5: BD56-530 (protein)
chain 1: QVTLKESGPVLVKPTETLTLTCTVSGFSLSNARMGVSWIRQPPGKALEWLAHIFSSDEKSYNTSLNSRLTISRDTSKSRVVLNMTNMDPVDTATYYCARIPESAFGGDNWFDPWGQGTLVTVSS
chain 2: SYELTQAPSVSVSPGQTARITCSGDALPKQYAYWYQKKPGQAPVLVIYKDSERPSGIPERFSGSSSGTTVTLTISGVQAEDEADYYCQSGDSSGVVFGGGTKLTVL
B6: BD56-533 (protein)
chain 1: QVQLMESGGGVVQPGRSLTISCSASGFTFSAYAMHWVRQAPGKGLEWVAVILDDGKNKLYADSGKGRFTISRDNPKNTLYLQMNSLRPEDTAVYYCARDQSLGMSTVTLFDQWGQGTLVTVSS
chain 2: DIQMTQSPSSLSASVGDRVTITCRASQSIRTYLNWYQQKPGKAPKLLIYEASRLQSGVPSRFSGSGSGTDFTLTINSLQPEDFATYFCQQSYNTPPWTFGQGTKVEI

What follows are binders tested against SARS-CoV-2 Omicron BA.1 spike pseudovirus (assay: pseudovirus neutralization IC50; higher = weaker neutralization).
Method: (§1)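 Single-round VSV luciferase pseudovirus mixed with antibody dilutions for 1 h and put on Huh-7 cells for about a day; IC50 from the dose curve.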

| Binder | pseudovirus neutralization IC50 [µg/mL] |
| --- | --- |
| B1 | 0.0476 |
| B2 | 8.64 |
| B3 | 0.246 |
| B4 | > 10 |
| B5 | 3.63 |
| B6 | 8.32 |

What follows are binders tested against SARS-CoV-2 Omicron BA.2 spike pseudovirus in the same assay as above.
Method: as §1

| Binder | pseudovirus neutralization IC50 [µg/mL] |
| --- | --- |
| B1 | 0.0379 |
| B2 | 7.75 |
| B3 | 0.229 |
| B4 | 8.51 |
| B5 | 3.66 |
| B6 | 8.24 |

These binders were tested against SARS-CoV-2 Omicron BA.2.75 spike pseudovirus in the same assay as above.
Method: as §1

| Binder | pseudovirus neutralization IC50 [µg/mL] |
| --- | --- |
| B1 | 0.00613 |
| B2 | 4.44 |
| B3 | 0.28 |
| B4 | > 10 |
| B5 | 6.61 |
| B6 | > 10 |

Each binder was assayed against SARS-CoV-2 Omicron BA.5 spike pseudovirus in the same assay as above.
Method: as §1

| Binder | pseudovirus neutralization IC50 [µg/mL] |
| --- | --- |
| B1 | > 10 |
| B2 | 6.85 |
| B3 | 0.242 |
| B4 | 8.18 |
| B5 | 3.51 |
| B6 | 9.87 |

The binders below were run against SARS-CoV-2 Omicron BQ.1.1 spike pseudovirus in the same assay as above.
Method: as §1

| Binder | pseudovirus neutralization IC50 [µg/mL] |
| --- | --- |
| B1 | > 10 |
| B2 | 5.9 |
| B3 | > 10 |
| B4 | > 10 |
| B5 | 4.28 |
| B6 | > 10 |

These binders were tested against SARS-CoV-2 Omicron XBB spike pseudovirus in the same assay as above.
Method: as §1

| Binder | pseudovirus neutralization IC50 [µg/mL] |
| --- | --- |
| B1 | > 10 |
| B2 | 5.8 |
| B3 | > 10 |
| B4 | > 10 |
| B5 | 8.05 |
| B6 | > 10 |

These binders were tested against SARS-CoV-2 early D614G spike pseudovirus in the same assay as above.
Method: as §1

| Binder | pseudovirus neutralization IC50 [µg/mL] |
| --- | --- |
| B1 | 0.00917 |
| B2 | 1.7 |
| B3 | 0.52 |
| B4 | 2.46 |
| B5 | 0.983 |
| B6 | 6.21 |
